Pooled drug test results. Numbers come from NIAID ChemDB, via PubChem.

Common to all: growth or infection tests; organism: Mycobacterium tuberculosis

MIC bound: limit read from a one-dose screen. ECn is the concentration giving n% inhibition of infection, replication or growth. A number after MIC or MFC names an inhibition level or a share of isolates. An empty or dashed field is not shown. Conditions beyond the fields shown may differ between rows. Inhibition is in % at the dose shown (toxicity tests: loss of growth or viability).

smiles,endpoint,strain,tested at,cell line,method,result
CO[C@H]1/C=C/O[C@@]2(C)Oc3c(C)c(NCc4ccccc4)c4c(c3C2=O)C(O)C(/C=N/N2CCN(C)CC2)=C(NC(=O)/C(C)=C\C=C\[C@H](C)[C@H](O)[C@@H](C)[C@@H](O)[C@@H](C)[C@H](OC(C)=O)[C@@H]1C)C4=O,MIC90,,,,resazurin,>4.4 µM
C[C@H]1COc2c(N3CCN(C)CC3)c(F)cc3c(=O)c(C(=O)O)cn1c23,MIC50,23 strains (rifampicin-resistant),,,,3.13 µg/mL
CCCc1cc(C(N)=S)ccn1,MIC,H37Rv,,,resazurin,2 µg/mL
C[C@H](c1ccccc1)N1C/C(=C\c2ccccc2Br)[C@@]2(ON=C(c3ccc(Cl)cc3)O2)[C@@]2(C1)ON=C(c1ccc(Cl)cc1)[C@@H]2c1ccccc1Br,MIC,H37Rv,,,,7.4 µM
O=C(N/N=C/c1coc2ccc(Cl)cc2c1=O)c1ccncc1,MIC,H37Rv,,,,1 µg/mL
O=[N+]([O-])c1ccc(Nc2ccc[n+]3c([O-])csc23)nc1,MIC bound,H37Rv,,,resazurin,>6.25 µg/mL
COc1cc(C(O)(CCN(C)C)C(c2cc(-c3ccccc3C#N)cnc2OC)c2cccc(OC)c2F)cc(OC)n1,EC90,H37Rv,,,fluorescence,16.83 µM
FC(F)(F)c1cc(Nc2nc(-c3ccccc3)nc3c2C(=NCc2ccco2)OC3=NCc2ccco2)ccc1Cl,MIC bound,H37Rv,,,BACTEC,>12.5 µg/mL
O=C(O)CCN1CSC(=S)N(Cc2ccccc2)C1,MIC,H37Rv,,,,50 µg/mL
CO[C@H]1/C=C/O[C@@]2(C)Oc3c(c4c(O)cc(c5nn(CCO)c(c3C)c45)=NC(=O)/C(C)=C\C=C\[C@H](C)[C@H](O)[C@@H](C)[C@@H](O)[C@@H](C)[C@H](OC(C)=O)[C@@H]1C)C2=O,MIC90,,,,low oxygen,>21.7 µM
COC(=O)/C(=C/Cc1ccc(OC)cc1)CN=[N+]=[N-],MIC,H37Rv,,,resazurin,>128 µM
COc1cc(C(O)(CCN(C)C)C(c2cc(-c3ccc(F)cc3)cnc2OC)c2cccc(OC)c2F)cc(OC)n1,EC90,H37Rv,,,fluorescence,4.3 µM
O=C(CCN1C(=O)/C(=C/c2ccc(OCc3ccccc3)cc2)SC1=S)NNC(=O)c1ccccc1,MIC,H37Rv,,,,24.18 µM
CO[C@H]1/C=C/O[C@@]2(C)Oc3c(C)c(O)c4c(O)c(c(/C=N/N5CCN(C)CC5)c(O)c4c3C2=O)NC(=O)/C(C)=C\C=C\[C@H](C)[C@H](O)[C@@H](C)[C@@H](O)[C@@H](C)[C@H](OC(C)=O)[C@@H]1C,MIC,,,,,0.3 µg/mL
CCOC1Oc2ccc(C)cc2C(=O)/C1=C/Nc1nc2ccccc2s1,MIC,H37Rv,,,,>100 µg/mL
CO[C@H]1/C=C/O[C@@]2(C)Oc3c(c4c(O)c(/C=N/N5CCN(C)CC5)c(c5nn(C)c(c3C)c45)=NC(=O)/C(C)=C\C=C\[C@H](C)[C@H](O)[C@@H](C)[C@@H](O)[C@@H](C)[C@H](OC(C)=O)[C@@H]1C)C2=O,MIC90,,,,low oxygen,>19.3 µM
C[C@H](c1ccccc1)N1C/C(=C\c2ccccc2)C(=O)/C(=C/c2ccccc2)C1,MIC,H37Rv,,,,65.88 µM
Cc1nn(C(=O)c2ccc(Cl)cc2)c2c1C(c1ccccc1)SC(N)=N2,MIC bound,H37Rv,,,resazurin,>6.25 µg/mL
O=C1c2ccccc2-c2c1c(NCCO)nc1ccc(Br)cc21,inhibition,H37Rv,6.25 µg/mL,,BACTEC / radiometric,25%
COC(=O)C1=CCC[C@H]2[C@](C)(CCC3=CC(=O)OC3O)[C@@H](C)CC[C@]12C,inhibition,H37Rv,12.5 µg/mL,,,0%
[Na+].[O-]/N=N/c1cnc(-c2ccccc2)c(-c2ccccc2)n1,inhibition,H37Rv,12.5 µg/mL,,BACTEC,22%
C=C(C)[C@@H]1CC[C@]2(C=O)CC[C@]3(C)[C@H](CC[C@@H]4[C@@]5(C)CC[C@H](O)C(C)(C)[C@@H]5CC[C@]43C)[C@@H]12,MIC,,,,,25 µg/mL
C[C@H](c1ccccc1)N1C/C(=C\c2ccc(Cl)cc2Cl)[C@@]2(ON=C(c3ccc(Cl)cc3)O2)[C@@]2(C1)ON=C(c1ccc(Cl)cc1)[C@@H]2c1ccc(Cl)cc1Cl,MIC,H37Rv,,,,0.49 µM
CCOC1Oc2ccc(Cl)cc2C(=O)/C1=C/Nc1nc2ccc(Cl)cc2s1,MIC,H37Rv,,,,25 µg/mL
COc1cc(/C=C2\SC(=S)N(CCC(=O)NNC(=O)c3cccnc3)C2=O)cc(OC)c1OC,MIC,H37Rv,,,,49.8 µM
C=C(C)[C@@H]1CC[C@]2(C(=O)O)CC[C@]3(C)C(CCC4[C@@]5(C)[C@@H](C(=O)O)[C@H](OC(=O)c6ccc(O)c(OC)c6)C(C)(C)[C@@H]5CC[C@]43C)C12,MIC,,,,,25 µg/mL
O=c1c2oc3ccccc3c2cnn1CCl,inhibition,H37Rv,12.5 µg/mL,,BACTEC,-3%
O=C1c2ccccc2-c2c1c1nnnn1c1ccc(Br)cc21,inhibition,H37Rv,6.25 µg/mL,,BACTEC / radiometric,46%
CCN(CC)c1ccc2nc3c4ccccc4c(=N)cc-3oc2c1,MIC,RMP-R,,,,12.5 µg/mL
CC(=O)OC1(C)c2ccccc2C2c3cc(Br)ccc3-n3nnnc3C21,inhibition,H37Rv,6.25 µg/mL,,BACTEC / radiometric,45%
C/C(=N\NC(=O)c1ccncc1)c1cccc(C(F)(F)F)c1,MIC,H37Rv,,VERO,,0.07675 µg/mL
O=C(O)CCCN1CSC(=S)N(c2ccco2)C1,MIC,H37Rv,,,,50 µg/mL
NCC[C@H](O)C(=O)NC1C[C@H](N)[C@@H](OC2O[C@H](CN)[C@@H](O)C(O)[C@H]2O)[C@H](O)C1O[C@H]1O[C@H](CO)[C@@H](O)[C@H](N)[C@H]1O,MIC,H37Rv,,,resazurin,1 µg/mL
NNC(=O)c1ccncc1,MIC,MDR-TB,,,,11.38 µM
N#CCC(=O)N/N=C/c1coc2ccc([N+](=O)[O-])cc2c1=O,MIC,H37Rv,,,,10 µg/mL
C[C@@H]1CN(c2c(F)c(N)c3c(=O)c(C(=O)O)cn(C4CC4)c3c2F)C[C@H](C)N1,MIC50,23 strains (rifampicin-resistant),,,,1.56 µg/mL
CC1(O)c2ccccc2C2c3cc(Br)ccc3-n3nnnc3C21,inhibition,H37Rv,6.25 µg/mL,,BACTEC / radiometric,51%
C=CCOc1cc(O)cc(O)c1C(=O)[C@@H](C)CC,MIC,H37Rv,,,broth dilution,100 µg/mL
O=C(O)CCN1CSC(=S)N(C2CCCCC2)C1,MIC,H37Rv,,,,100 µg/mL
CO[C@H]1/C=C/O[C@@]2(C)Oc3c(C)c(NCCO)c4c(c3C2=O)C(O)C(/C=N/N2CCN(C)CC2)=C(NC(=O)/C(C)=C\C=C\[C@H](C)[C@H](O)[C@@H](C)[C@@H](O)[C@@H](C)[C@H](OC(C)=O)[C@@H]1C)C4=O,MIC90,,,,resazurin,>4.6 µM
COC(=O)/C(=C/Cc1ccc(Cl)cc1Cl)CN=[N+]=[N-],MIC,H37Rv,,,resazurin,>128 µM
CN(C)CCCn1c(=O)nc2n(-c3ccccc3)c3ccccc3nc-2c1=O,inhibition,H37Rv,12.5 µg/mL,,BACTEC,24%
C[C@H](c1ccccc1)N1C/C(=C/c2ccc(Cl)cc2Cl)[C@]2(ON=C(c3ccccc3)O2)C2(C1)ON=C(c1ccccc1)[C@H]2c1ccc(Cl)cc1Cl,MIC,H37Rv,,,,2.06 µM
CC(=O)NC[C@H]1CN(c2ccc(N3CCOCC3)c(F)c2)C(=O)O1,MIC,H37Rv,,,resazurin,0.5 µg/mL
N#Cc1cccc(C2SCc3nc4ccccc4n32)c1,inhibition,H37Rv,6.25 µg/mL,,resazurin,14%
CCC1CCC2CN(/N=C/c3c4c(O)c5c(O)c(C)c6c(c5c3O)C(=O)[C@@](C)(O/C=C/[C@H](OC)[C@@H](C)[C@@H](OC(C)=O)[C@H](C)[C@H](O)[C@H](C)[C@@H](O)[C@@H](C)/C=C/C=C(/C)C(=O)N4)O6)CCN2C1,MIC,,,,,≤0.04 µg/mL
CCCCOc1ccc(NC(=S)Nc2ccc(OCCN(CC)CC)cc2)cc1,inhibition,,0.5 µM,,BACTEC,73%
O=C(CCN1C(=O)/C(=C/c2ccc3c(c2)OCO3)SC1=S)NNC(=O)c1ccccc1,MIC,H37Rv,,,,54.95 µM
CCC1Cn2cc([N+](=O)[O-])nc2O1,MIC,1 isolates rifampin-resistant,,,,0.08 µg/mL
COc1cc(C(O)(CCN(C)C)C(c2cc(-c3ccccc3C)cnc2OC)c2cccc(OC)c2F)cc(OC)n1,EC90,H37Rv,,,fluorescence,9.96 µM
CC1CCCCc2nc3c(c(=O)n21)CCCC3,inhibition,H37Rv,12.5 µg/mL,,BACTEC,-1%
NC[C@H]1O[C@H](O[C@H]2[C@H](O)[C@@H](O[C@H]3O[C@H](CO)[C@@H](O)[C@H](N)[C@H]3O)[C@H](N)C[C@@H]2N)[C@H](O)[C@@H](O)[C@@H]1O,MIC,H37Rv,,,resazurin,≤1.25 µg/mL
O=C(CCN1C(=O)/C(=C/c2ccc(Cl)cc2)SC1=S)NNC(=O)c1ccncc1,MIC,H37Rv,,,,25.25 µM
O=c1c2c3c(sc2nc2n1N=CN(c1ccccc1)C2)CCCC3,MIC bound,H37Rv,,,resazurin,>6.25 µg/mL
Cc1ccc2occ(/C=N/NC(=O)c3ccccc3O)c(=O)c2c1,MIC,H37Rv,,,,100 µg/mL
CO[C@H]1/C=C/O[C@@]2(C)Oc3c(C)c(O)c4c(O)c(c(/C=N/N5CCN(C)CC5)c(O)c4c3C2=O)NC(=O)/C(C)=C\C=C\[C@H](C)[C@H](O)[C@@H](C)[C@@H](O)[C@@H](C)[C@H](OC(C)=O)[C@@H]1C,MIC,H37Rv,,,resazurin,0.1 µg/mL
C[C@H](c1ccccc1)N1C[C@@]2(ON=C(c3ccccc3)[C@H]2c2ccc(Cl)cc2Cl)C2(ON=C(c3ccccc3)O2)[C@]2(C1)ON=C(c1ccccc1)[C@H]2c1ccc(Cl)cc1Cl,MIC,MDR-TB,,,,1.78 µM
O=Nc1c(-c2cccc([N+](=O)[O-])c2)nc2cc(-c3ccccc3)[nH]n12,MIC bound,H37Rv,,,BACTEC,>12.5 µg/mL
COC(=O)/C(=C/Cc1cccc2ccccc12)CN=[N+]=[N-],MIC,H37Rv,,,resazurin,>128 µM
CC1Oc2ccccc2NC1=O,inhibition,H37Rv,12.5 µg/mL,,BACTEC,-8%
C=C(C)[C@@H]1CC[C@]2(C(=O)O)CC[C@]3(C)[C@H](CC[C@@H]4[C@@]5(C)CC[C@H](O)C(C)(C)[C@@H]5CC[C@]43C)[C@@H]12,MIC,,,,,25 µg/mL
C[C@H](c1ccccc1)N1C/C(=C\c2ccccc2Cl)[C@@]2(ON=C(c3ccc(Cl)cc3)O2)[C@@]2(C1)ON=C(c1ccc(Cl)cc1)[C@@H]2c1ccccc1Cl,MIC,H37Rv,,,,4.14 µM
NC(N)=NC(N)=NC1CCCCC1,MIC bound,,,,resazurin,>6.25 µg/mL
COc1cc(C(O)(CCN(C)C)C(c2cc(-c3ccccn3)cnc2OC)c2cccc(OC)c2F)cc(OC)n1,EC90,H37Rv,,,fluorescence,22.55 µM
CCOC(=O)CCC1(C(=O)OCC)Oc2ccc(Cl)cc2C1=O,inhibition,H37Rv,12.5 µg/mL,,BACTEC,11%
C=CCOc1cccc(/C=C/C(=O)c2ccc(O)cc2O)c1,MIC,H37Rv,,,broth dilution,>200 µg/mL
Cc1ccnc(NC2=CC(=O)C(=O)c3ccccc32)c1,inhibition,H37Rv,6.25 µg/mL,,resazurin,-1%
CCCCCCC(=O)OC1(C)c2ccccc2C2c3cc(Br)ccc3-n3nnnc3C21,inhibition,H37Rv,6.25 µg/mL,,BACTEC / radiometric,39%
O=C(N/N=C/c1ccccc1Cl)C(O)C(O)C(O)C(O)CO,MIC,H37Rv,,,BACTEC,≥12.5 µg/mL
COc1cc(C(O)(CCN(C)C)C(c2cc(-c3cccc(C#N)c3)cnc2OC)c2cccc(OC)c2F)cc(OC)n1,EC90,H37Rv,,,fluorescence,6.19 µM
COc1ccc(/C=N/NC(=O)c2ccco2)cc1OC,MIC bound,H37Rv,,,BACTEC,>12.5 µg/mL
CC[C@@H](CO)NCCN[C@@H](CC)CO,MIC,MDR-TB,,,,61.18 µM
COc1ccc2c(c1)c(=O)c1c(NCCNCCO)ccc3c(=O)n(CCN(C)C)c(=O)n2c31.Cl,MIC bound,H37Rv,,,resazurin,>6.25 µg/mL
CO[C@H]1/C=C/O[C@@]2(C)Oc3c(C)c(O)c4c(O)c(c(N5CCN(Cc6c(C)cc(C)cc6C)CC5)c(O)c4c3C2=O)NC(=O)/C(C)=C\C=C\[C@H](C)[C@H](O)[C@@H](C)[C@@H](O)[C@@H](C)[C@H](OC(C)=O)[C@@H]1C,MIC,,,,,0.04 µg/mL

The last 8 rows once more:

smiles,endpoint,strain,tested at,cell line,method,result
Cc1ccnc(NC2=CC(=O)C(=O)c3ccccc32)c1,inhibition,H37Rv,6.25 µg/mL,,resazurin,-1%
CCCCCCC(=O)OC1(C)c2ccccc2C2c3cc(Br)ccc3-n3nnnc3C21,inhibition,H37Rv,6.25 µg/mL,,BACTEC / radiometric,39%
O=C(N/N=C/c1ccccc1Cl)C(O)C(O)C(O)C(O)CO,MIC,H37Rv,,,BACTEC,≥12.5 µg/mL
COc1cc(C(O)(CCN(C)C)C(c2cc(-c3cccc(C#N)c3)cnc2OC)c2cccc(OC)c2F)cc(OC)n1,EC90,H37Rv,,,fluorescence,6.19 µM
COc1ccc(/C=N/NC(=O)c2ccco2)cc1OC,MIC bound,H37Rv,,,BACTEC,>12.5 µg/mL
CC[C@@H](CO)NCCN[C@@H](CC)CO,MIC,MDR-TB,,,,61.18 µM
COc1ccc2c(c1)c(=O)c1c(NCCNCCO)ccc3c(=O)n(CCN(C)C)c(=O)n2c31.Cl,MIC bound,H37Rv,,,resazurin,>6.25 µg/mL
CO[C@H]1/C=C/O[C@@]2(C)Oc3c(C)c(O)c4c(O)c(c(N5CCN(Cc6c(C)cc(C)cc6C)CC5)c(O)c4c3C2=O)NC(=O)/C(C)=C\C=C\[C@H](C)[C@H](O)[C@@H](C)[C@@H](O)[C@@H](C)[C@H](OC(C)=O)[C@@H]1C,MIC,,,,,0.04 µg/mL